Results of unrelated studies side by side (data: NIAID ChemDB).

All rows: tests in culture; species: HIV-1; cells: MT-4; endpoint: EC50

Conditions beyond the fields shown may differ between rows. An empty or dashed field is not shown. ECn is the concentration giving n% inhibition of infection, replication or growth.

compound	strain	changes	method	result
CC(C)c1nc(CN(C)C(=O)N[C@H](C(=O)N[C@@H](Cc2ccccc2)C[C@H](O)[C@H](Cc2ccccc2)NC(=O)OCc2cncs2)C(C)C)cs1	IIIB Recombinant			0.08 µM
C#Cc1ccc(Nc2nccc(Oc3c(C)cc(-c4cn(Cc5ccc(S(N)(=O)=O)cc5)nn4)cc3C)n2)cc1	IIIB	Y188L	MTT	≥3.56 µM
C=CCn1c(-n2[nH]c(=O)c3ccccc3c2=O)nc2ccccc2c1=O	IIIB		visual reading	100 µM
N#Cc1cccc(CN2CCC(N=C3C=C(Cc4ccc(Cl)cc4Cl)NS(=O)(=O)N3)CC2)c1	RES056	RT-K103N Y181C	MTT	>99.87 µM
CC(C)(C)[Si](C)(C)OC[C@H]1O[C@@H](n2cnc3c(=O)[nH]cnc32)[C@H](O[Si](C)(C)C(C)(C)C)C12OS(=O)(=O)C=C2N	IIIB		trypan blue	0.14 µg/mL
C#Cc1ccc(Nc2nccc(Oc3c(C)cc(-c4cn(Cc5cccc([N+](=O)[O-])c5)nn4)cc3C)n2)cc1	IIIB	K103N	MTT	0.38 µM
Cc1c(CC23CC4CC(CC(C4)C2)C3)nc(SCC(=O)Nc2ccc(C#N)cc2)[nH]c1=O	RES056		MTT / absorbance	>6.69 µM
CCc1c(C(C)C2CCCCC2)nc(SCC(=O)c2ccccc2)[nH]c1=O	IIIB		MTT	0.018 µM
C1CNCCNCC(C2CNCCNCCCNCCNC2)CNCCNC1	IIIB		cytopathic effect / MTT	0.33 µg/mL
CS(=O)(=O)c1ccc(CN2CCC(N=C3C=C(Cc4ccc(Cl)cc4Cl)NS(=O)(=O)N3)CC2)cc1	IIIB		MTT	106 µM
CCC(Cc1ccccc1)c1cc(O)c(C(c2cccc(NC(=O)[C@H](Cc3cnc[nH]3)NC(=O)OC(C)(C)C)c2)C2CC2)c(=O)o1	IIIB		MTT / p24	>3 µM
Cc1c(C(C)CC2CCCCC2)nc(SCC(=O)c2ccccc2)[nH]c1=O	IIIB		MTT	0.35 µM
CCN1c2cc(C)c(C)cc2N(C)S(=O)(=O)c2cccnc21	RF		cytopathic effect	0.3 µM
Cc1cn([C@H]2C[C@H](N=[N+]=[N-])[C@@H](CO)O2)c(=O)[nH]c1=O	RES056	RT-K103N Y181C	MTT	0.01 µM
C#Cc1ccc(Nc2nccc(Oc3c(C)cc(-c4cn(Cc5cccc(C(=O)OC)c5)nn4)cc3C)n2)cc1	IIIB	L100I	MTT	>4.78 µM
COc1ncccc1C(=O)c1cccc(C#N)c1	IIIB		MTT	56.25 µM
CNC(=O)c1[nH]c2ccc(Cl)cc2c1Sc1ccccc1	IIIB		p24 / ELISA	<0.2 µM
O=c1[nH]cnc2c1ncn2[C@H]1CC[C@@H](CO)O1	RF		cytopathic effect	8.5 µM
CC(C)(C)NC(=O)[C@@H]1C[C@@H]2CCCC[C@@H]2CN1C[C@@H](O)[C@H](Cc1ccccc1)NC(=O)O[C@H]1CO[C@H]2OCC[C@H]21	IIIB		antigen	<0.046 µM
C=C(C)[C@]12C[C@@H](COC(=O)c3ccccc3)[C@@]34O[C@]5(O[C@@H]1[C@@H]3[C@@H]1O[C@]1(CO)[C@@H](O)[C@@]1(O)[C@H]4[C@H]([C@H](C)[C@@H]1OC(=O)c1ccccc1)[C@H](C)CCCCCC[C@H]5O)O2	NL4-3		p24 / ELISA	0.000031 µM
Cc1cn([C@H]2C[C@H](N=[N+]=[N-])[C@@H](CO)O2)c(=O)[nH]c1=O	IIIB-R (RT-Y181C)	RT-Y181C	cytopathic effect / MTT	0.0023 µM
CCn1c(-n2[nH]c(=O)c3ccccc3c2=O)nc2ccccc2c1=O	IIIB		visual reading	100 µM
CC(C)(C)NC(=O)[C@@H]1C[C@@H]2CCCC[C@@H]2CN1C[C@@H](OC(=O)CCCCO[C@H]1O[C@H](CO)[C@@H](O)[C@H](O)[C@@H]1O)[C@H](Cc1ccccc1)NC(=O)[C@H](CC(N)=O)NC(=O)c1ccc2ccccc2n1	IIIB		cytopathic effect / MTT	2.165 µM
C#Cc1ccc(Nc2nccc(Oc3c(C)cc(-c4cn(-c5ccc(C(=O)OC)cc5)nn4)cc3C)n2)cc1	IIIB	Y188L	MTT	>242 µM
CC(=O)c1ccc(CN2CCC(N=C3C=C(Cc4cccc5ccccc45)NS(=O)(=O)N3)CC2)cc1	RES056	RT-K103N Y181C	MTT	>106 µM
O=S(Cc1[nH]c2ccccc2c1S(=O)c1ccccc1)c1ccccc1	IIIB		p24 / ELISA	>3 µM
CC(C)(c1cc2cnccc2o1)N1CCN(C[C@@H](O)C[C@@H](Cc2ccccc2)C(=O)N[C@H]2c3ccccc3OC[C@H]2O)[C@H](C(=O)NCC(F)(F)C(F)(F)F)C1	NL4-3		p24	<0.008 µM
Cc1c(OC(=O)CCCCOc2ccc(C[C@H](N)C(=O)O)cc2)cccc1C(=O)N[C@@H](CSc1ccccc1)[C@H](O)CN1C[C@H]2CCCC[C@H]2C[C@H]1C(=O)NC(C)(C)C	IIIB		cytopathic effect / MTT	0.193 µM
CC(C)CN(C[C@@H](O)[C@H](Cc1ccccc1)NC(=O)[C@H](CC(N)=O)NC(=O)c1ccc2ccccc2n1)C(=O)NC(C)(C)C	NL4-3	PR-M46I L63P V82T I84V	p24	<1.5 µM
C1CNCCNCCCN(CCCN2CCCNCCNCCCNCC2)CCNC1	NL4-3		cytopathic effect / MTT	0.161 µg/mL
COC(=O)c1[nH]c2ccc(Cl)cc2c1Sc1ccccc1	IIIB		p24 / ELISA	<1.5 µM
O=[N+]([O-])c1ccc(CN2CCC(N=C3C=C(Cc4cccc5ccccc45)NS(=O)(=O)N3)CC2)cc1	RES056	RT-K103N Y181C	MTT	>104 µM
CCc1cc(CCc2nc3ccccc3o2)c(=O)[nH]c1C	IIIB-R (RT-Y181C)	RT-Y181C	cytopathic effect / MTT	>188 µM
CCCCCCCCCCCCCC(=O)O[C@@H](C[C@@H](Cc1ccccc1)C(=O)N[C@H]1c2ccccc2C[C@H]1OC(=O)CCCCCCCCCCCCC)CN1CCN(Cc2cccnc2)C[C@H]1C(=O)NC(C)(C)C	IIIB		cytopathic effect / MTT	>10 µM
Cc1c(OC(=O)CCCCO[C@H]2O[C@H](CO)[C@@H](O)[C@H](O)[C@@H]2O)cccc1C(=O)N[C@@H](CSc1ccccc1)[C@@H](CN1C[C@H]2CCCC[C@H]2C[C@H]1C(=O)NC(C)(C)C)OC(=O)CCCCO[C@H]1O[C@H](CO)[C@@H](O)[C@H](O)[C@@H]1O	IIIB		cytopathic effect / MTT	>>50 µM
CC(C)(C)NC(=O)[C@@H]1C[C@@H]2CCCC[C@@H]2CN1C[C@@H](O)[C@H](Cc1ccccc1)NC(=O)[C@H](CC(N)=O)NC(=O)c1ccc2ccccc2n1	NL4-3	PR-L10R M46I L63P	p24	<0.025 µM
CC(C)(C)[Si](C)(C)OC[C@H]1O[C@@H](n2cnc3nc[nH]c(=O)c32)[C@H](O[Si](C)(C)C(C)(C)C)C12OS(=O)(=O)C=C2N	IIIB		trypan blue	0.09 µg/mL
COc1ccc(-n2c(-n3[nH]c(=O)c4ccccc4c3=O)nc3ccccc3c2=O)cc1	IIIB		visual reading	100 µM
CCN1c2ncccc2N(C)C(=S)c2oc3cccnc3c21	NDK		cytopathic effect	0.2 µM
Cc1cc(C)cc(C(=O)c2cccnc2Oc2ccc(N)cc2)c1	IIIB		MTT	>123 µM
CC(CC1CCCCC1)c1cc(=O)[nH]c(SCC(=O)c2ccccc2)n1	IIIB		MTT	9.58 µM
CC(C)(C)NC(=O)[C@@H]1C[C@@H]2CCCC[C@@H]2CN1C[C@@H](OC(=O)CCCCO[C@@H]1[C@@H](O)[C@@H](O)O[C@H](CO)[C@H]1O)[C@H](Cc1ccccc1)NC(=O)[C@H](CC(N)=O)NC(=O)c1ccc2ccccc2n1	IIIB		cytopathic effect / MTT	0.062 µM
CC(=O)c1ccc(CN2CCC(N=C3C=C(Cc4ccc(Cl)cc4Cl)NS(=O)(=O)N3)CC2)cc1	RES056	RT-K103N Y181C	MTT	>99.45 µM
COc1ccc(C(=O)CSc2nc(CC34CC5CC(CC(C5)C3)C4)c(C)c(=O)[nH]2)cc1	RES056		MTT / absorbance	>285 µM
Cc1cn([C@H]2C[C@H](N=[N+]=[N-])[C@@H](CO)O2)c(=O)[nH]c1=O	NL4-3			0.005 µM
C#Cc1ccc(Nc2nccc(Oc3c(C)cc(-c4cn(Cc5ccccc5)nn4)cc3C)n2)cc1	IIIB	E138K	MTT	0.24 µM
Cc1cc(C)cc(C(=O)c2cccnc2Nc2ccc(C#N)cc2)c1	IIIB		MTT	>128 µM
O=c1[nH]n(-c2nc3ccccc3c(=O)n2-c2ccc(Cl)cc2)c(=O)c2ccccc12	IIIB		visual reading	43.68 µM
C1CNCCNCCCN[C@@H]([C@H]2CNCCCNCCNCCCN2)CNC1	IIIB		cytopathic effect / MTT	0.12 µg/mL
COCCOCCOCCOCCOCCOCCOCCOC(=O)CCC(=O)O[C@@H]1Cc2ccccc2[C@@H]1NC(=O)[C@H](Cc1ccccc1)C[C@H](O)CN1CCN(Cc2cccnc2)C[C@H]1C(=O)NC(C)(C)C	IIIB		cytopathic effect / MTT	0.19 µM
CC(C)(C)NC(=O)[C@@H]1CN(Cc2cccnc2)CCN1C[C@@H](O)C[C@@H](Cc1ccccc1)C(=O)N[C@H]1c2ccccc2C[C@H]1OC(=O)CCCCO[C@@H]1[C@@H](O)[C@@H](O)O[C@H](CO)[C@H]1O	IIIB		cytopathic effect / MTT	0.19 µM
Cc1cc(C)cc(C(=O)c2cccnc2Nc2ccc(O)cc2)c1	IIIB		MTT	>6.44 µM
O=C(N[C@@H](Cc1ccccc1)[C@@H](O)C[C@@H](Cc1ccccc1)C(=O)N[C@H]1c2ccccc2C[C@H]1O)OC1CCOC1	IIIB		p24	<0.003 µM
CC(C)(C)NC(=O)[C@@H]1CN(Cc2cccnc2)CCN1C[C@@H](O)C[C@@H](Cc1ccccc1)C(=O)N[C@H]1c2ccccc2C[C@H]1OC(=O)CCCCO[C@H]1O[C@H](CO)[C@@H](O)[C@H](O)[C@@H]1O	IIIB		cytopathic effect / MTT	0.263 µM
Cc1ccnc2c1NC(=O)c1cccnc1N2C1CC1	RES056		MTT	>15.02 µM
CC(C)C(NC(=O)OC(C)(C)C)C(=O)O[C@@H](C[C@@H](Cc1ccccc1)C(=O)N1[C@H]2c3ccccc3C[C@H]2OC1(C)C)CN1CCN(Cc2cccnc2)C[C@H]1C(=O)NC(C)(C)C	IIIB		cytopathic effect / MTT	>10 µM
CCNC(=O)[C@@H]1CN(C(C)(C)c2cc3cnccc3o2)CCN1C[C@@H](O)C[C@@H](Cc1ccccc1)C(=O)N[C@H]1c2ccccc2OC[C@H]1O	NL4-3		p24	<0.031 µM
Cc1c(CC23CC4CC(CC(C4)C2)C3)nc(SCC(=O)Nc2ccccc2)[nH]c1=O	RES056		MTT / absorbance	>295 µM
CCC(Cc1ccccc1)c1cc(O)c(C(c2cccc(NC(=O)[C@H](Cc3cn(S(=O)(=O)c4ccc(C)cc4)cn3)NC(=O)OC(C)(C)C)c2)C2CC2)c(=O)o1	IIIB		MTT / p24	>3 µM
CC(C)(C)[Si](C)(C)OC[C@H]1O[C@@H](n2cnc3[nH]c(=O)[nH]c(=O)c32)[C@H](O[Si](C)(C)C(C)(C)C)C12OS(=O)(=O)C=C2N	IIIB		trypan blue	0.23 µg/mL
Cc1ccnc2c1NC(=O)c1cccnc1N2C1CC1	IIIB		MTT / absorbance	0.26 µM
N#Cc1ccccc1CN1CCC(N=C2C=C(Cc3cccc4ccccc34)NS(=O)(=O)N2)CC1	IIIB		MTT	26.3 µM
Cc1ccnc2c1NC(=O)c1cccnc1N2C1CC1	IIIB		MTT	0.31 µM
COc1ccc(C(=O)CSc2nc(C(C)C3CCCCC3)c(C)c(=O)[nH]2)cc1	IIIB		MTT	0.06 µM
CC(C)(C)NC(=O)[C@@H]1CN(C(C)(C)c2cc3cnccc3o2)CCN1C[C@@H](O)C[C@@H](Cc1ccccc1)C(=O)N[C@H]1c2ccccc2OC[C@H]1O	NL4-3		p24	<0.008 µM
c1cc(CN2CCCNCCNCCCNCC2)ccc1CN1CCCNCCNCCCNCC1	NL4-3			0.02 µM
Cc1cc(C)cc(C(=O)c2cccnc2Nc2cccnc2)c1	RES056		MTT	>41.63 µM
Cc1c(C(C)C2CCCCC2)nc(SCC(=O)c2ccccc2)[nH]c1=O	IIIB		MTT	0.08 µM
CC(C)CN(C[C@@H](O)[C@H](Cc1ccccc1)NC(=O)O[C@H]1CCOC1)S(=O)(=O)c1ccc(N)cc1	LAI		cytopathic effect / MTT	~0.034 µM
CCCCCCCCCCCCCC(=O)O[C@@H]1Cc2ccccc2[C@@H]1NC(=O)[C@H](Cc1ccccc1)C[C@H](O)CN1CCN(Cc2cccnc2)C[C@H]1C(=O)NC(C)(C)C	IIIB		cytopathic effect / MTT	0.36 µM
CCOCn1c(SC)nc(CC)c1Cc1ccccc1	IIIB		cytopathic effect / MTT	>100 µM
CCc1c(CC23CC4CC(CC(C4)C2)C3)nc(SCC(=O)Nc2ccc(C#N)cc2)[nH]c1=O	IIIB		MTT / absorbance	0.82 µM
Cn1cnc2c(ncn2[C@@H]2O[C@H](CO[Si](C)(C)C(C)(C)C)C3(OS(=O)(=O)C=C3N)[C@H]2O[Si](C)(C)C(C)(C)C)c1=O	IIIB		trypan blue	0.18 µg/mL
O=S(Cc1[nH]c2ccc(Cl)cc2c1Sc1ccccc1)c1ccccc1	IIIB		p24 / ELISA	<0.8 µM